This note sets out measurements from patent US10059975B2, “Methods for the isolation and identification of microorganisms” (bioMerieux, Inc., priority 2008, dated 2018).

The subject of the series is positive blood culture broths containing S. pneumoniae, E. coli and S. aureus. As to the kind of experiment: Screening of density cushion compounds: separation of microorganisms from lysed positive blood culture broth. Particulars: 0.7 mL lysate over 0.5 mL cushion, 2 minutes at approximately 10,000 g.

With `OC[C@H]1O[C@@](CO)(O[C@H]2O[C@H](CO)[C@@H](O)[C@H](O)[C@H]2O)[C@@H](O)[C@@H]1O` [sucrose], the “separation results as density cushion (in words)” value is on record as “Satisfactory”.
